Experimental data: PMC11676875, “In Vitro Screening of an In-House Library of Structurally Distinct Chemotypes Towards the Identification of Novel SARS-CoV-2 Inhibitors” (Pharmaceuticals, 2024)
Some compounds may have been tested in ways that are not shown here.

Test system: SARS-CoV-2

## Cc1ccc2c(c1)nc(Cn1nnc3ccccc31)n2CCN(C)C
  IC50: > 20 µM

## CN(C)CCn1c(Cn2nnc3ccccc32)nc2cc(Cl)ccc21
  IC50: > 60 µM
